Results as given in article PMC3516572, “MiniCD4 Microbicide Prevents HIV Infection of Human Mucosal Explants and Vaginal Transmission of SHIV162P3 in Cynomolgus Macaques” (PLoS Pathogens, 2012).

Test system: breakthrough viruses (SHIV162P3, animal # 19302)
Experiment: Susceptibility of pseudotyped breakthrough viruses in TZM-bl assay
Type: cell-based, simian-human immunodeficiency virus
Conditions: plasma of animal # 19302 collected 21 days after challenge, env sequenced and pseudotyped

CC(C)C[C@@H]1NC(=O)CNC(=O)[C@H](CC(C)C)NC(=O)[C@H](CO)NC(=O)[C@H](CCCCN)NC(=O)[C@@H]2CSSC[C@@H](C(=O)N[C@H](C(N)=O)C(C)C)NC(=O)[C@H](C)NC(=O)[C@@H]3CSSC[C@H](NC(=O)[C@H](Cc4ccccc4)NC(=O)[C@H](Cc4cnc[nH]4)NC(=O)[C@H](CC(C)C)NC(=O)[C@H](CC(N)=O)NC(=O)CCSSC[C@H](NC(=O)[C@H](CCCNC(=N)N)NC(=O)CNC(=O)[C@H](CC(C)C)NC1=O)C(=O)N[C@@H](C)C(=O)N1CCC[C@@H]1C(=O)N[C@@H]([C@@H](C)O)C(=O)N[C@@H](Cc1ccc(OCC4CCCCC4)cc1)C(=O)N3)C(=O)N[C@@H](CCC(N)=O)C(=O)N[C@@H](CC(C)C)C(=O)N[C@@H](CCCNC(=N)N)C(=O)N2 [M48U1]
Susceptibility of breakthrough viruses to M48U1: fully susceptible
